Patent US8895613B2 (priority 2013, dated 2014)

Target: neuraminidase of influenza virus B/Pert/211/2001 (197E) (Influenza B virus, UniProt Q3S340, D197E)
Assay type: biochemical
Conditions: read-out: IC50, nM (number of experiments)

## CCC(CC)O[C@@H]1C=C(C(=O)O)C[C@H](N)[C@H]1NC(C)=O [A2, (3R,4R,5S)-5-amino-4-acetamido-3-(pentan-3-yloxy)cyclohex-1-enecarboxylic acid, reference compound]
  IC50: 230 nM
